Compound potency records, mixed from different reports. Data source: NIAID ChemDB in PubChem.

All rows: tests in culture; organism: HIV-1; endpoint: fold resistance

Rows are shuffled and stem from different studies. Fold resistance: result on the changed form divided by that on wild type. Blank or dashed fields: not listed here.

structure	cells	mutations	strain	method	result
Cc1ccnc2c1NC(=O)c1cccnc1N2C1CC1	CEM + CEM-SS	RT-K103N	NL4-3 (RT K103N)	cytopathic effect / XTT	>100
CC(C)=CCN1Cc2cccc3[nH]c(=S)n(c23)C[C@@H]1C	CEM + CEM-SS	RT-P236L	IIIB HEPT-resistant (RT P236L)	cytopathic effect / XTT	1
Cc1cc(Br)cc(S(=O)(=O)c2cccc(N)c2C#N)c1	HeLa + HELA CD4+	RT-Y181C		β-galactosidase	1270
Nc1ccn([C@H]2CC[C@@H](CO)O2)c(=O)n1	CD4+HELA + HeLa	RT-T215Y	HXB2	plaque count	1.43
Cc1cn([C@H]2C[C@H](N=[N+]=[N-])[C@@H](CO)O2)c(=O)[nH]c1=O	CEM + CEM-SS	RT-Y188C	NL4-3	cytopathic effect / XTT	6
Cc1ccnc2c1NC(=O)c1cccnc1N2C1CC1	CEM	RT-K103N Y144F	P-1 (RT-K103N Y144F)	cytopathic effect	402
CC(C)=CCOc1cc(NC(=S)c2ccoc2C)ccc1Cl	CEM + CEM-SS	RT-T139I	Calanolide A-resistant (RT T139I)	XTT	8
CC[C@H]1C(=O)Nc2ccc(F)cc2N1C(=O)OC(C)C	CEM	RT-K101E	C-1 (RT-K101E)	cytopathic effect	3
Cc1cc(S(N)(=O)=O)ccc1NC(=O)COc1ccc(Cl)cc1C(=O)c1cc(Cl)cc(C#N)c1	MAGI	RT-G190A	NNRTI-resistant (RT G190A)	β-galactosidase	1.7
CCc1c(Sc2ccccn2)n(COCc2ccccc2)c(=O)[nH]c1=O	CEM + CEM-SS	RT-A98G V108I	IIIB	cytopathic effect / XTT	30
CC(C)CN(C[C@@H](O)[C@H](Cc1ccccc1)NC(=O)[C@H](CC(N)=O)NC(=O)c1ccc2ccccc2n1)C(=O)NC(C)(C)C	MT-4	PR-M46I L63P	NL4-3	p24	1
CN[C@H]1CO[C@@H]2OCC[C@H](OC(=O)N[C@@H](Cc3ccccc3)[C@H](O)CN(CC(C)C)S(=O)(=O)c3ccc4nc(NC5CC5)sc4c3)[C@@H]21	MT-4	L10I I15V K20R L24I V32I M36I M46I I54V I62V L63P K70Q V82A L88M	NL4-3	p24 / luminescence	0.5
N#Cc1cc2[nH]c3ccccc3c2n(-c2ccc([N+](=O)[O-])cc2)c1=O	HeLa	RT-M41L A62V S68N G112S V118I M184V	Recombinant	luciferase	34.7
Cc1occc1C(=S)Nc1ccc(Cl)c(/C=N/OC(C)(C)C)c1	CEM + CEM-SS	RT-Y181C	UC38-RS (RT-Y181C)	cytopathic effect / XTT	6.5
Cc1ccc(S(=O)(=O)N(CC(C)C)C[C@@H](O)[C@H](Cc2ccccc2)NC(=O)O[C@H]2CO[C@H]3OCC[C@H]32)cc1	MT-2	8374-P62 GS-8374-resistant	IIIB	ATP	3.6
O=c1[nH]cnc2c1ncn2[C@H]1CC[C@@H](CO)O1	HeLa	RT-M41L V118I M184V	Recombinant	luciferase	1.7
Nc1nc(=O)n([C@@H]2CS[C@H](CO)O2)cc1F	HT4 + HT4 LacZ-1	RT-D67N K70R T215F K219Q	RTMC (RT D67N K70R T215F K219Q)	plaque count	7.11
Cc1ccnc2c1NC(=O)c1cccnc1N2C1CC1	MAGI (CCR5) + MAGI	RT-K103N M184V	NL4-3	β-galactosidase	37.7
COc1cc(C(F)(F)F)cc(S(=O)(=O)c2cccc(N)c2C#N)c1	HeLa + HELA CD4+	RT-K103N V108I		β-galactosidase	714
O=c1[nH]cnc2c1ncn2[C@H]1CC[C@@H](CO)O1		RT M41L T69SS insertion T215Y	RT-41L 69[SS] 215Y		3
COC(=O)N[C@H](C(=O)N[C@@H](Cc1ccccc1)[C@@H](O)CN(Cc1ccc(-c2ccccn2)cc1)NC(=O)[C@@H](NC(=O)OC)C(C)(C)C)C(C)(C)C	MT-4	L10I I15V K20R L24I V32I M36I M46I I54V I62V L63P K70Q V82A L88M	NL4-3	p24 / luminescence	>213
CCc1c(Sc2ccccn2)n(COCc2ccccc2)c(=O)[nH]c1=O	CEM + CEM-SS	RT-Y181C	UC040-R (RT-Y181C)	cytopathic effect / XTT	110
CC(C)CN(C[C@@H](O)[C@H](Cc1ccccc1)NC(=O)O[C@H]1CCOC1)S(=O)(=O)c1ccc(N)cc1	MT-2	K112M K113E V128I M200I H219P I401T R409K D437N L441P	IIIB	p24 / ELISA	1.2
Cc1cn([C@H]2C=C[C@@H](CO)O2)c(=O)[nH]c1=O	MAGI (CCR5) + MAGI	RT-K65R	HXB2	β-galactosidase	1.1
C/C=C/CSc1cc(NC(=S)c2ccsc2C)ccc1Cl	CEM + CEM-SS	RT-A98G V108I	TIBO R82150-resistant (RT A98G V108I)	cytopathic effect / XTT	6
CC(C)=CCN1c2cc(Cl)cc3[nH]c(=S)n(c23)C[C@@H]1C	MT-4	RT-M41L T215Y L100I			2
Nc1nc2c(ncn2[C@H]2CO[C@@H](CO)O2)c(=O)[nH]1		RT-M41L L74V V106A T215Y	RT-41L 74V 215Y 106A		2.5
O=c1[nH]cnc2c1ncn2[C@H]1CC[C@@H](CO)O1	HELA-CD4+	RT-M41L D67N T69D L210W T215Y	JF138M1 (RT M41L D67N T69D L210W T215Y) Chimeric clone	plaque count	1.17
O=c1[nH]cnc2c1ncn2[C@H]1CC[C@@H](CO)O1	HT4 + HT4 LacZ-1	RT-L74V Y181C T215Y	HIVRTMF (RT L74V Y181C)	plaque count	7.14
CN[C@H]1CO[C@@H]2OCC[C@H](OC(=O)N[C@@H](Cc3cccc(OC)c3)[C@H](O)CN(CC(C)C)S(=O)(=O)c3ccc4nc(NC(C)C)sc4c3)[C@@H]21	MT-4	L10F K20T D30N K45I A71V V77I	NL4-3	p24 / luminescence	2
Cc1cc(O)cc(S(=O)(=O)c2cccc(N)c2C#N)c1	HeLa + HELA CD4+	RT-L100I K103N		β-galactosidase	79.4
Nc1ccn([C@H]2CC[C@@H](CO)O2)c(=O)n1	HT4 + HT4 LacZ-1	RT-D67N K70R Y181C M184V T215F K219Q	RTMC(181 184) (RT 67N 70R Y181C M184V T215F K219Q)	plaque count	3.96
Cc1ccnc2c1NC(=O)c1cccnc1N2C1CC1	CEM + CEM-SS	RT-A98G	NL4-3	XTT	10
Cc1cc(Cl)cc(S(=O)(=O)c2cccc(N)c2C#N)c1	HeLa + HELA CD4+	RT-P236L		β-galactosidase	1.22
CCN[C@H]1CO[C@@H]2OCC[C@H](OC(=O)N[C@@H](Cc3cccc(OC)c3)[C@H](O)CN(CC(C)C)S(=O)(=O)c3ccc4nc(NC(C)C)sc4c3)[C@@H]21	MT-4	L23I E34Q K43I M46I I50L G51A L63P A71V V82A T91A	NL4-3	p24 / luminescence	0.9
Cc1cn([C@H]2C[C@H](N=[N+]=[N-])[C@@H](CO)O2)c(=O)[nH]c1=O	CEM + CEM-SS	RT-Y181C	Diphenyl sulfone-resistant (RT-Y181C)	XTT	0.2
Cn1c2ccccc2c2c1cc(C#N)c(=O)n2-c1ccc([N+](=O)[O-])cc1	HeLa	RT-M41L S68N G112S M184V	Recombinant	luciferase	36.5
Cc1c(Sc2ccccc2)n(COCCO)c(=O)[nH]c1=O	CEM + CEM-SS	RT-L100I	IIIB	cytopathic effect / XTT	>11
CC(C)(C)NC(=O)[C@@H]1C[C@@H]2CCCC[C@@H]2CN1C[C@@H](O)[C@H](Cc1ccccc1)NC(=O)[C@H](CC(N)=O)NC(=O)c1ccc2ccccc2n1	MT-4	PR-L63P V82T	NL4-3	p24	1
Cc1cn([C@H]2C=C[C@@H](CO)O2)c(=O)[nH]c1=O	CD4+HELA + HeLa	RT-V75T	HXB2	plaque count	7.6
CCOCn1c(Cc2ccccc2)c(C(C)C)c(=O)[nH]c1=O	CEM	RT-K103N Y144F	P-1 (RT-K103N Y144F)	cytopathic effect	233
CCN(c1nc(F)ccc1NC(C)(C)C)C1CCN(C(=O)c2cc3cc(NC(=O)N4CCN(C)CC4)ccc3[nH]2)CC1	MT-2	D437N L441P	IIIB	p24 / ELISA	1.5
CC(C)CN(C[C@@H](O)[C@H](Cc1ccccc1)NC(=O)O[C@H]1CCO[C@H]2OCC[C@H]21)S(=O)(=O)c1ccc2nc(NC3CC3)sc2c1	MT-4	L10I I15V K20R L24I V32I M36I M46I I54V I62V L63P K70Q V82A L88M	NL4-3	p24 / luminescence	57
CC(=O)c1ccc(C)cc1NC(C(N)=O)c1c(Cl)cccc1Cl	MAGI	RT-T240I	IIIB	MTT	4.89

Repeating the final 5 entries:

structure	cells	mutations	strain	method	result
Cc1cn([C@H]2C=C[C@@H](CO)O2)c(=O)[nH]c1=O	CD4+HELA + HeLa	RT-V75T	HXB2	plaque count	7.6
CCOCn1c(Cc2ccccc2)c(C(C)C)c(=O)[nH]c1=O	CEM	RT-K103N Y144F	P-1 (RT-K103N Y144F)	cytopathic effect	233
CCN(c1nc(F)ccc1NC(C)(C)C)C1CCN(C(=O)c2cc3cc(NC(=O)N4CCN(C)CC4)ccc3[nH]2)CC1	MT-2	D437N L441P	IIIB	p24 / ELISA	1.5
CC(C)CN(C[C@@H](O)[C@H](Cc1ccccc1)NC(=O)O[C@H]1CCO[C@H]2OCC[C@H]21)S(=O)(=O)c1ccc2nc(NC3CC3)sc2c1	MT-4	L10I I15V K20R L24I V32I M36I M46I I54V I62V L63P K70Q V82A L88M	NL4-3	p24 / luminescence	57
CC(=O)c1ccc(C)cc1NC(C(N)=O)c1c(Cl)cccc1Cl	MAGI	RT-T240I	IIIB	MTT	4.89